Experimental data from US20230355708A1, “COMPOSITIONS FOR INHIBITING VIRAL ENTRY AND METHODS USING SAME” (DREXEL UNIVERSITY, published 2023).

Experiments:
[1] = target: SARS-CoV-2 spike S1 subunit (SARS-CoV-2, UniProt P0DTC2 16-685)
[2] = target: SARS-CoV-2 spike S2 subunit (SARS-CoV-2, UniProt P0DTC2 686-1213)

B1: P51G-CVN (other)
chain: LGKFSQTCYNSAIQGSVLTSTCERTNGGYNTSSIDLNSVIENVDGSLKWQGSNFIETCRNTQLAGSSELAAECKTRAQQFVSTKINLDDHIANIDGTLKYE
binding result [1]: binds
binding result [2]: binds
